PubChem BioAssay AID1259414 | Drosophila RNAi Screening Center – 2018
The screen tested about 24,000 reagents; shown is a random part of those that have a named target and a result. In the full data, about 1,210 (5%) were called active. 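Inactive calls also include excluded dsRNAs with several or no targets, genes unexpressed in JW18, and well A1, regardless of score.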 A plus sign joins genes that one reagent is predicted to hit. No sequences are given here.

- Screen: 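Genome-wide screen for host control of endosymbiont load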 (primary screen)
- Cell system: Drosophila JW18 cells infected with Wolbachia
- Reagent: long dsRNA against Drosophila genes, 0.25 µg dsRNA per well of a 384-well plate
- Duration: 5 days
- Treatment: cells persistently infected with Wolbachia before knock-down; no added drug
- Detection: 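Imaged fluorescence in situ signal for Wolbachia 23S rRNA per DAPI-counted host cell, given as a robust z-score within each plate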
- Reading the numbers: Wolbachia per cell robust z: higher = more Wolbachia per host cell than the plate typical
- Active means: 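Hit when robust z is 1.5 or more, or -1.5 or less, in at least two of three replicates; excludes dsRNAs with several or no targets, genes not expressed in JW18 and well A1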

The first 5 records as a preview:
| gene knocked down | amplicon | Wolbachia per cell robust z, rep 1 | Wolbachia per cell robust z, rep 2 | Wolbachia per cell robust z, rep 3 | Call |
| --- | --- | --- | --- | --- | --- |
| Polr2L | DRSC14630 | -0.0982 | -2.07 | 1.74 | inactive |
| CG46441 | DRSC15561 | 0.419 | 0.792 | -0.228 | inactive |
| CG46441 | DRSC24659 | 1.15 | 0.557 | -0.261 | inactive |
| HIP-R + HIP | DRSC18245 | -0.09 | -5.74 | 0.0913 | inactive |
| HIP-R + HIP | DRSC27912 | 0.657 | -0.0158 | 0.641 | inactive |

The listing, from the first entry:
| gene knocked down | amplicon | Wolbachia per cell robust z, rep 1 | Wolbachia per cell robust z, rep 2 | Wolbachia per cell robust z, rep 3 | Call |
| --- | --- | --- | --- | --- | --- |
| Polr2L | DRSC14630 | -0.0982 | -2.07 | 1.74 | inactive |
| CG46441 | DRSC15561 | 0.419 | 0.792 | -0.228 | inactive |
| CG46441 | DRSC24659 | 1.15 | 0.557 | -0.261 | inactive |
| HIP-R + HIP | DRSC18245 | -0.09 | -5.74 | 0.0913 | inactive |
| HIP-R + HIP | DRSC27912 | 0.657 | -0.0158 | 0.641 | inactive |
| HIP-R + HIP | DRSC38701 | 0.261 | 2.14 | 0.296 | inactive |
| Sirt6 | DRSC16010 | -0.553 | -4.58 | -0.34 | inactive |
| Sirt6 | DRSC29965 | 0.253 | 0.547 | 0.364 | inactive |
| CG14631 | DRSC17792 | 0.522 | -4.1 | 0.238 | inactive |
| CG14631 | DRSC17941 | -1.36 | -2.2 | -0.813 | inactive |
| CG32075 | DRSC10622 | 1.48 | 0.0013 | -0.419 | inactive |
| CG32075 | DRSC29881 | 0.732 | 1.04 | 0.231 | inactive |
| RpL6 | DRSC14323 | 0.479 | -2.97 | 0.652 | inactive |
| RpL6 | DRSC22384 | 1.55 | 1.42 | 0.452 | inactive |
| RpL6 | DRSC25982 | 2.34 | 3.38 | 3.37 | active |
| Cpr76Bd | DRSC11063 | -0.173 | -2.4 | 0.00626 | inactive |
| CG7741 + Obp47b | DRSC06330 | -6.33 | -4.51 | -0.111 | inactive |
| CG31189 | DRSC16198 | 0.783 | -2.67 | -0.403 | inactive |
| ND-51L2 | DRSC07080 | -3.68 | -0.678 | -0.0644 | inactive |
| E(spl)m8-HLH | DRSC16654 | -0.286 | 0.283 | 1.55 | inactive |
| E(spl)m8-HLH | DRSC28065 | 0.916 | 0.187 | -0.151 | inactive |
| DNaseII | DRSC16310 | 0.169 | -0.137 | 0.0491 | inactive |
| CG17359 | DRSC10265 | -0.0128 | 0.119 | -0.663 | inactive |
| CG17359 | DRSC24439 | -1.34 | 0.188 | -0.449 | inactive |
| S-Lap2 | DRSC10628 | -0.869 | 0.661 | 0.49 | inactive |
| CG5002 | DRSC06911 | 0.0622 | 0.122 | -0.681 | inactive |
| Atxn7 | DRSC23138 | 0.402 | 1.39 | -4.17 | inactive |
| CG10654 | DRSC09767 | 0.0585 | 0.07 | 0.193 | inactive |
| Mkrn1 | DRSC11870 | 1.34 | 2.12 | 0.937 | inactive |
| Mkrn1 | DRSC25478 | -1.14 | -0.807 | -0.0892 | inactive |
| Tsp42Ed | DRSC05940 | -3.06 | -5.46 | -2.96 | active |
| gcm2 | DRSC03538 | 0.302 | -1.16 | -0.178 | inactive |
| gcm2 | DRSC29823 | -6.51 | -1.12 | -0.724 | inactive |
| D1 | DRSC16638 | -0.711 | 0.208 | 0.788 | inactive |
| His-Psi:CR31754 | DRSC22051 | -0.202 | 0.514 | 1.72 | inactive |
| Or88a | DRSC16770 | -1.04 | -0.158 | 0.21 | inactive |
| EndoU + CR31292 | DRSC26161 | -1.61 | 0.0862 | -2.26 | active |
| Lsp1gamma | DRSC08672 | 0.697 | 0.537 | -1.33 | inactive |
| Lsp1gamma | DRSC25710 | -1.15 | 0.546 | 0.626 | inactive |
| CG9899 | DRSC04597 | -1.8 | 0.241 | -0.249 | inactive |
| dbe | DRSC00811 | 1.19 | -0.121 | -0.723 | inactive |
| Ank | DRSC17127 | -1.57 | 0.862 | -0.917 | inactive |
| Ank | DRSC29865 | -0.705 | -0.492 | -2.45 | inactive |
| eIF4E4 | DRSC09701 | -0.933 | -0.0879 | 0.115 | inactive |
| CG44098 | DRSC12214 | 0.238 | 1.22 | -0.539 | inactive |
| CG44098 | DRSC12240 | 1.13 | 1.31 | 2.55 | inactive |
| CG44098 | DRSC12327 | 1.39 | -0.394 | 0.457 | inactive |
| CG44098 | DRSC23643 | 1.35 | 0.632 | 1.21 | inactive |
| CG44098 | DRSC24166 | -0.245 | -0.789 | 0.0103 | inactive |
| CG44098 | DRSC26836 | 0.372 | -1.33 | -1.76 | inactive |
| CG32086 | DRSC10586 | 0.673 | -1.11 | 1.04 | inactive |
| CG34034 | DRSC38815 | -1.12 | -0.354 | -0.463 | inactive |
| ltl | DRSC10206 | -0.65 | 0.295 | -1.67 | inactive |
| ltl | DRSC10870 | -0.0684 | -2.32 | -0.764 | inactive |
| CG10336 | DRSC02037 | -0.617 | -0.576 | -0.635 | inactive |
| Adck5 | DRSC10890 | 1.08 | 0.128 | 0.877 | inactive |
| CG13227 | DRSC06347 | 1.18 | 0.568 | 0.345 | inactive |
| CG13227 | DRSC27529 | -5.37 | 1.02 | 0.24 | inactive |
| RPA3 | DRSC19658 | -5.62 | -0.106 | 0.324 | inactive |
| CG31673 | DRSC03207 | -3.3 | -3.89 | -2.87 | inactive |
| CG4586 | DRSC18373 | -0.117 | -0.0496 | 0.395 | inactive |
| RpL24 | DRSC03185 | 1.82 | 2.89 | 1.88 | active |
| RpL24 | DRSC28724 | 0.658 | 2.03 | 2.25 | active |
| CG9822 | DRSC04568 | 0.207 | -1.36 | -0.955 | inactive |
| Madm | DRSC12129 | 0.0163 | -1.73 | -0.393 | inactive |
| Madm | DRSC25999 | -0.0384 | 0.0382 | -0.536 | inactive |
| mRpL52 | DRSC06585 | 0.193 | 0.105 | 0.588 | inactive |
| Glg1 | DRSC11815 | -1.3 | -0.368 | -1.2 | inactive |
| Glg1 | DRSC11816 | 0.351 | 0.327 | -0.895 | inactive |
| Glg1 | DRSC11817 | -0.915 | -0.317 | -0.231 | inactive |
